# Results of single-concentration screens

Mtb cholesterol medium: 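Whole-cell growth test on Mycobacterium tuberculosis, read after 4 days in a medium based on cholesterol and the lipid DPPC; the read-out is not stated. Concentration: 500 µM. The record gives no direction; compounds that gave an IC50 in retests scored well above the rest, so higher reads as more growth inhibition. Size under these conditions: about 18,000 compounds, about 900 of them at 50% or above in at least one test.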
Mtb glucose medium: 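Growth of Mycobacterium tuberculosis over 3 days (7H9 medium with glucose and tyloxapol); the read-out is not stated. Compounds at 500 µM. Higher reads as more growth inhibition (inferred: compounds with an IC50 in retests scored well above the rest). Of about 18,000 compounds tested this way, about 1,400 (7.9%) reached 50% or more in at least one test.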

The filed quantity is “Percent Effect” (%).
How 0% and 100% were set is not recorded. Most values in the screen are low, and negative values occur.
Many other results are left out here, so strong results are more common than in the screen.
A dash means the value is not listed here; it may have been measured.

structure	Mtb cholesterol medium	Mtb glucose medium
Cc1nnnn1CCC(=O)NCc1csc(C(C)C)n1	-	18.2%
CN1CCCN(CC(=O)NCCc2ncnn2C)CC1	-	-12.84%
CC1(C)CN(C(=O)c2cnc3ccccn23)CCS1	-	-15.3%
CCCNCCNC(=O)C(C)c1ccc(OC)cc1 (stereo not shown)	-	17.36%
Cn1cc(I)c(=O)n(Cc2ccccn2)c1=O	-	-13.55%
Cc1cc(C)n2c(SCCC(N)=O)nnc2n1	-14.6%	-
COc1c(CC(O)CO)cc2c(c1OC)OCO2 (stereo not shown)	-	13.04%
O=C(CNC(=O)c1cccnc1O)NC1CC1	-	27.46%
CN(Cc1ccon1)C(=O)C1COc2ccccc2C1 (stereo not shown)	-	40.56%
Cc1noc(C2CCCN(Cc3ccccn3)C2)n1 (stereo not shown)	-	11.73%
O=C(CCC(=O)c1ccccc1)NCc1n[nH]c(=O)[nH]1	-	-5.938%
CC(C)c1ccoc1C(=O)N(C)c1cc(C#N)ccn1	50.76%	63.91%
CN(Cc1cc(Br)cs1)C(=O)c1ccn(C)c(=O)c1	3.302%	-
CN(CCOc1ccc(Cl)cc1)S(C)(=O)=O	66.95%	77.19%
CCNC(=O)NCC(C)Oc1cccc(OC)c1 (stereo not shown)	72.63%	72.28%
Cc1ncsc1CCCNC(=O)c1cn[nH]c1	-	12.49%
COc1cc(Cl)ccc1CN	-	63.88%
Cc1nc(CN2CCC(CN)CC2)cs1	-	12.64%
CCN(CC(=O)NCc1ccccn1)CC1CCOC1 (stereo not shown)	-	-0.6344%
Cc1cc(NC(=O)Cn2cc(Br)ccc2=O)no1	-7.706%	-
CS(=O)(=O)N1CCC(Cc2ccccc2)C1 (stereo not shown)	61.42%	63.39%
COC(=O)c1ccc(COc2ccccc2CO)o1	52.67%	59.76%
Cc1ccoc1C(=O)N1CCCC(C)C1 (stereo not shown)	-	10.49%
CN(C)c1cc(CNc2ncnc3nc[nH]c23)ccn1	-	14.86%
CSc1nc2ccsc2c(=O)n1CC(=O)N1CCCC1	-	2.609%
Cc1cc(CNS(=O)(=O)N(C)C)ccc1F	11.06%	31.98%
COc1ccc(C(=O)NC2=NCCS2)c(O)c1	87.26%	72.49%
COc1ccccc1C(O)CNc1cccc(C)n1 (stereo not shown)	-	66.29%
Cc1cccc(C(=O)Nc2cc[nH]n2)c1F	6.081%	15.97%
CCN1CCC(O)CC1	-	11.8%
Nc1cccnc1NCc1cccnc1	-	-115.5%
CC1CN(C)CCN1C(=O)NCc1cccs1 (stereo not shown)	-	20.19%
Cc1ccsc1CNC(=O)Cn1cc(F)ccc1=O	-	3.072%
CN(C)C1CN(C(=O)Nc2cccc(OCCF)c2)C1	-	6.473%
Cc1c(Br)cccc1C(=O)N(C)CCNS(C)(=O)=O	-	22.5%
O=S(=O)(CC1CCCCC1)N[C@H]1CCCNC1	-	20.29%
Cn1nc(CCN)c2ccccc21	70.99%	-8.416%
CCN1CCN(c2ccc(F)cc2C(C)N)CC1 (stereo not shown)	-	22.04%
O=C(NCC(O)C1CC1)c1ccccc1C(F)(F)F (stereo not shown)	-4.722%	-
CC(C)(C)OC(=O)NCC(C)(O)c1ccco1 (stereo not shown)	-	24.42%
CCN(Cc1ccn(CC)n1)[C@H]1COC[C@@H]1O	13.98%	-
COCCN(C)CCCNC(=O)c1cc(Cl)c[nH]1	-3.82%	-
CCN1CC(C(=O)N2CCOC3(CCCC3)C2)CC1=O (stereo not shown)	-	0.8515%
CCCNC(=O)C1CN(C(C)=O)c2ccccc2O1 (stereo not shown)	-3.273%	-
CC(C)c1nsc(NCC(O)CN2CCOCC2)n1 (stereo not shown)	-	0.4061%
CCOC(=O)N1CCC(NC(CO)c2ccco2)CC1 (stereo not shown)	1.097%	-
COC(=O)C(O)CNc1ccc(C(F)(F)F)cn1 (stereo not shown)	60.39%	59.04%
Cn1cnc2cc(F)ccc21	2.112%	-
O=C(Cc1cccs1)N1CCC(Nc2cccnc2)C1 (stereo not shown)	17.18%	-
O=C(NCCN1CCNCC1)C1CCCC1	-	-0.8019%
Cc1ccc(C(=O)N2CCOCC2CO)c(C)n1 (stereo not shown)	-	7.336%
CC[C@@]1(O)CCN(Cc2noc(COC)n2)C[C@H]1O	3.989%	-
Cc1cc(CN2CCC(Oc3cccnc3)CC2)on1	33.67%	52.1%
O=C(CC1CNCCO1)NCc1ccc2sccc2c1 (stereo not shown)	10.77%	-
CN(C)C(=O)NCCNc1cccc(Br)c1	23.32%	34.81%
CCN1CCCC(CNC(=O)Nc2cnn(CC)c2)C1 (stereo not shown)	-	1.989%
CCN(CC)C(=O)c1ccc(=O)n(CCOC)n1	-5.745%	-
CN(C)C1CCN(C(=O)CC2CCNCC2)CC1	-	5.547%
CCN(C(=O)NCCc1ccco1)C(C)CS(C)(=O)=O (stereo not shown)	-	-0.3282%
NC(=O)CCN1CCCN(Cc2ccccc2F)CC1	-	24.85%
Cc1cccc(S(=O)(=O)NC2CCNC2)c1Cl (stereo not shown)	-	-1.343%
Cc1ccc(CN)nc1	22.15%	45.52%
CCN(CCS(=O)(=O)c1ccccc1)CC(C)C#N (stereo not shown)	3.351%	-6.662%
Cc1nc(NC(=O)Nc2ccc(N(C)C)nc2)oc1C	-	-9.212%
Cc1nnc(SCc2ccc(Cl)s2)n1CC(N)=O	37.33%	53.23%
Cn1cc(Br)c(CC#N)n1	-	7.338%
O=C(CCn1cnnc1)Nc1cccc(F)c1	-	18%
CC(=O)NC1CCN(c2ncccc2C#N)CC1	-11.08%	-
CCCNS(=O)(=O)c1nc2nc(C)cc(C)n2n1	-	-9.632%
NC(CO)c1nc2ccccc2[nH]1 (stereo not shown)	-19.54%	-
NCCNS(=O)(=O)c1cccc(I)c1	-	50.85%
NC(=O)N1CCCC(C(=O)NCCc2ccsc2)C1 (stereo not shown)	-2.493%	-
N#Cc1cccc(S(=O)(=O)N2CC(O)(C3CC3)C2)c1	9.015%	-

The values are deposited in ChEMBL (CHEMBL3988442, “University of Dundee, Small-Polar-MMV Screening Library” (2021)).